The source of these data is article PMC3518039 (Journal of medicinal chemistry, 2012).

The chains behind the UniProt entries cited, without tags or fusion partners. Where a name states a change or a piece, a line headed by the entry shows the natural chain unless it says otherwise.
UniProt I6Y2J4: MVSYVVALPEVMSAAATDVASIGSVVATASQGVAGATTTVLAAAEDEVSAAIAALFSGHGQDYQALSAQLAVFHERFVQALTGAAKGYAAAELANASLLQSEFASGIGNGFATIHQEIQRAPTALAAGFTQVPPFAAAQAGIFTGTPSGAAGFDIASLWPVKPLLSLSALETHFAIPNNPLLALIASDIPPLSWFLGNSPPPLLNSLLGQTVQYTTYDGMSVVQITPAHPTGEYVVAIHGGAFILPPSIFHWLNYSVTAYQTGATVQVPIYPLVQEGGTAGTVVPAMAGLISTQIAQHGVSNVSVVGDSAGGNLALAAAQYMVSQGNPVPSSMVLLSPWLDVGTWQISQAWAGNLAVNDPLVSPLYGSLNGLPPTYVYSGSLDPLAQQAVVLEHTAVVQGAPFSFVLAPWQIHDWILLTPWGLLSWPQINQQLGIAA

This assay concerns the target Mycobacterium tuberculosis LipY (triacylglycerol lipase) (Mycobacterium tuberculosis, UniProt I6Y2J4). In kind it is biochemical.

With `CCCCCCCCCCCCCCCCOP1(=O)CCCC(C(=O)OC)=C(C)O1` (stereo not shown) [Compound 11, Methyl 7-methyl-2-(hexadecyloxy)-2,3,4,5-tetrahydro-1,2-oxaphosphepine-6-carboxylate 2-oxide], the “residual lipase activity (plateau), LipY” value was “around 6.0%”.
